PubChem BioAssay AID624099 | ICCB-Longwood, 2012

Purpose: 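Knock-downs relieving repression by E2 of an HPV18 LCR luciferase reporter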 (primary screen)
Cells: human C33A cervical carcinoma cells (HPV-negative) stably expressing BPV1 E2 and an HPV18 LCR luciferase reporter
Reagents: siRNA pool against human genes, 40 nM
Timing: 72 h
Detection: 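HPV18 LCR reporter light per well, converted to plate-wise z-scores that exclude control wells, and averaged over triplicate plates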
Reading the numbers: mean z-score and z-score: higher = stronger reporter signal, weaker E2 silencing
Hit rule: 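Hit if mean z-score reaches 2 and two or more of three replicate z-scores also reach 2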
Shown is one part, drawn at random, of about 21,000 deposited reagents. Of all reagents, 497 (2.4%) are marked active. 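Higher z means weaker E2 silencing; only reporter increases were scored, and knock-downs that hurt cell survival may mask genuine repressor factors.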 Unmarked entries are inactive.

Which result is listed for LINC00941 (long independently transcribed non-coding RNA 941)?
mean z-score: -0.37; z-score, replicate A: -0.53; z-score, replicate B: -0.56; z-score, replicate C: -0.01

What did the screen give for SLC47A2?
mean z-score: 0.47; z-score, replicate A: 0.8; z-score, replicate B: 0.38; z-score, replicate C: 0.23

With MOGAT1 (monoacylglycerol O-acyltransferase 1), how do the results read?
mean z-score: 0.19; z-score, replicate A: -0.15; z-score, replicate B: 0.05; z-score, replicate C: 0.69

For RNPS1P1 (RNA binding protein with serine rich domain 1 pseudogene 1), how do the results read?
mean z-score: -0.77; z-score, replicate A: -0.83; z-score, replicate B: -0.88; z-score, replicate C: -0.61

Which result is listed for PKD2L2?
mean z-score: 0.63; z-score, replicate A: 0.55; z-score, replicate B: 0.63; z-score, replicate C: 0.71

For CHST12 (carbohydrate sulfotransferase 12), how do the results read?
mean z-score: 0.99; z-score, replicate A: 1.03; z-score, replicate B: 1.2; z-score, replicate C: 0.73

What is on record for MGAT4B?
mean z-score: 0.87; z-score, replicate A: 1.21; z-score, replicate B: 0.74; z-score, replicate C: 0.65

2 entries already listed, ordered by “z-score, replicate A”, ascending:
MOGAT1 (monoacylglycerol O-acyltransferase 1) | mean z-score: 0.19; z-score, replicate A: -0.15; z-score, replicate B: 0.05; z-score, replicate C: 0.69
SLC47A2 | mean z-score: 0.47; z-score, replicate A: 0.8; z-score, replicate B: 0.38; z-score, replicate C: 0.23

The listing continues.
What is on record for RUMY4 (RUMY family member 4)?
mean z-score: -0.6; z-score, replicate A: -0.44; z-score, replicate B: -0.57; z-score, replicate C: -0.8

Which result is listed for LOC143243 (retired record)?
mean z-score: -0.71; z-score, replicate A: -1.3; z-score, replicate B: -0.46; z-score, replicate C: -0.37

Which result is listed for LOC388519 (retired record)?
mean z-score: -3.62; z-score, replicate A: -3.91; z-score, replicate B: -3.48; z-score, replicate C: -3.46

For CMPK1 (cytidine/uridine monophosphate kinase 1), how do the results read?
mean z-score: 1.04; z-score, replicate A: 1.19; z-score, replicate B: 1.03; z-score, replicate C: 0.91

How did the screen score TUFT1 (tuftelin 1)?
mean z-score: -0.04; z-score, replicate A: -0.17; z-score, replicate B: -0.05; z-score, replicate C: 0.12

What is on record for PRAG1 (PEAK1 related, kinase-activating pseudokinase 1)?
mean z-score: 0.41; z-score, replicate A: 0.76; z-score, replicate B: 0.04; z-score, replicate C: 0.43

For GLCCI1 (glucocorticoid induced 1), how do the results read?
mean z-score: 2 (active); z-score, replicate A: 1.94; z-score, replicate B: 2.07; z-score, replicate C: 2.01
